Source: article PMC10451377, “Rationally Designed Pyrimidine Compounds: Promising Novel Antibiotics for the Treatment of Staphylococcus aureus-Associated Bovine Mastitis” (Antibiotics, 2023)

What was measured:
HepG2 cells [1] = test: LDH release assay; type: cell-based, human
HepG2 cells [2] = test: MTT assay; type: cell-based, human

| SMILES | S.I. (CC50 values/MIC against S. aureus Newbould) (HepG2 cells [1]) | S.I. (CC50 values/MIC against S. aureus Newbould) (HepG2 cells [2]) |
| --- | --- | --- |
| CCCCCCNc1cc(N)nc(N)n1 [PC206] | 3.9 | 4.2 |
| CCCCCNc1cc(N)nc(N)n1 [PC372] | 4.8 | 4.2 |
| CCCCCCCCCCNc1cc(N)nc(N)n1 [PC383] | 0.4 | 0.8 |
